Results from patent publication US6329498A, “Polypeptide transition metal salts and method of enhancing anti-HIV activity of polypeptide” (Seikagaku Corporation, priority 1996, dated 2001).

System: human immunodeficiency virus (HIV)
Assay: Anti-HIV activity: protection of HIV-infected MT-4 cells from cell death, MTT method
Conditions: rough ratio of CC50 to EC50, MT-4 cells
Experimental: To a 96-well microtiter plate, HIV-infected MT-4 cells (2.5×10^4 cells/well, Multiplicity of infection (MOI): 0.001) was added immediately after the infection along with test materials in various concentrations. […] On the other hand, in order to know the cytotoxicity of the test substances on the MT-4 cells, virus-non-infected cells were cultured with the test materials in various concentrations as described above. […] And the rough ratio of CC50 to EC50 (CC50 /EC50) is expressed as an effective ratio (SI).

## Dextran sulfate [reference compound]
  SI (CC50 /ED50): > 1480
